Results from US20230234994A1, “Vasopressin-2 receptor antagonist peptides and uses thereof” (published 2023).

Tests used:
[1] = molecular target: human vasopressin-2 receptor (human) (UniProt P30518); assay: cell-based or functional assay
[2] = molecular target: human vasopressin-2 receptor (human) (UniProt P30518)
[3] = molecular target: human vasopressin-2 receptor (human) (UniProt P30518); assay: Ki ratio to WT MQ1; 3H-AVP competition binding on V2R membranes

Substance	Inhibition of cAMP production, IC50 [1] [nM]	Ki [2] [nM]	ratio [3]
MQ-LEAD (F4G + K39A + T27D + I48E) (peptide; modification not given)	9.27	0.66	0.13
F4G+K39A+T27D peptide (peptide; modification not given)	–	0.74	0.15
K39A+I48L peptide (peptide; modification not given)	–	0.93	0.19
N15A+K39A+I48L peptide (peptide; modification not given)	–	2.05	0.41
K39A peptide (peptide; modification not given)	46.1	0.57	0.115
